Measurements: patent US11185516B2 (Laboratorios Silanes S.A. DE C.V., priority 2016, dated 2021)

Conditions: 1240 mg against metformin hydrochloride 1000 mg

## CN(C)C(=N)N=C(N)N [Metformin glycinate, N,N-dimethylimidodicarbonimidic diamide glycinate]
  bioequivalence (90% C.I. in magnitude and velocity): within the theoretical ranges of bioequivalence
